Results of unrelated studies side by side (data: NIAID ChemDB).

Common to all: growth or infection tests; species: Mycobacterium avium; read-out: MIC90

Conditions beyond the fields shown may differ between rows.

smiles,strain,value
CCn1cc(C(=O)O)c(=O)c2cc(F)c(-n3cccc3)cc21,22 strains,64 µg/mL
CCOc1c(N2CCC(C(C)(C)N)C2)c(F)cc2c(=O)c(C(=O)O)cn(C3CC3)c12,14 strains,8 µg/mL
CC(C)N=c1cc2n(-c3ccc(Cl)cc3)c3ccccc3nc-2cc1Nc1ccc(Cl)cc1,Clinical strains,2 µg/mL
C[C@@H]1CN(c2c(F)c(N)c3c(=O)c(C(=O)O)cn(C4CC4)c3c2F)C[C@H](C)N1,14 strains,4 µg/mL
CCn1cc(C(=O)O)c(=O)c2cc(F)c(N3CCN(C)CC3)cc21,13 strains,>64 µg/mL
CCn1cc(C(=O)O)c(=O)c2cc(F)c(N3CCNCC3)cc21,63 strains,>16 µg/mL
CCN(CC)c1nc2c(s1)c1c(O)c3c(O)c(C)c4c(c32)C(=O)[C@@](C)(O/C=C/[C@H](OC)[C@@H](C)[C@@H](OC(C)=O)[C@H](C)[C@H](O)[C@H](C)[C@@H](O)[C@@H](C)/C=C/C=C(/C)C(=O)N1)O4,50 strains,0.94 µg/mL
NNC(=O)c1ccncc1,Clinical strains,>16 µg/mL
C[C@@H]1CN(c2c(F)c(N)c3c(=O)c(C(=O)O)cn(C4CC4)c3c2F)C[C@H](C)N1,9 isolates (HIV+),8 µg/mL
CC[C@H]1OC(=O)[C@H](C)[C@@H](O[C@H]2C[C@@](C)(OC)[C@@H](O)[C@H](C)O2)[C@H](C)[C@@H](O[C@@H]2O[C@H](C)C[C@H](N(C)C)[C@H]2O)[C@](C)(OC)C[C@@H](C)C(=O)[C@H](C)[C@@H](O)[C@]1(C)O,Clinical isolate,<4 µg/mL
NC1CCCCN(c2c(F)cc3c(=O)c(C(=O)O)cn(C4CC4)c3c2F)C1=O,14 strains,>32 µg/mL
CC1CN(c2cc3c(cc2F)c(=O)c(C(=O)O)cn3-c2ccc(F)cc2F)CCN1,22 strains,32 µg/mL
CO[C@H]1/C=C/O[C@@]2(C)Oc3c(C)c(O)c4c(O)c(c5c(c4c3C2=O)NC2(CCN(CC(C)C)CC2)N=5)=NC(=O)/C(C)=C\C=C\[C@H](C)[C@H](O)[C@@H](C)[C@@H](O)[C@@H](C)[C@H](OC(C)=O)[C@@H]1C,Clinical isolate,>0.5 µg/mL
CC[C@H]1OC(=O)[C@H](C)[C@@H](O[C@H]2C[C@@](C)(OC)[C@@H](O)[C@H](C)O2)[C@H](C)[C@@H](O[C@@H]2O[C@H](C)C[C@H](N(C)C)[C@H]2O)[C@](C)(OC)C[C@@H](C)C(=O)[C@H](C)[C@@H](O)[C@]1(C)O,33 isolates,8 µg/mL
CN1CCN(c2cc3c(cc2F)c(=O)c(C(=O)O)cn3-c2ccc(F)cc2)CC1,22 strains,128 µg/mL
NC1CCN(c2c(F)cc3c(=O)c(C(=O)O)cn(C4CC4)c3c2F)C1,14 strains,16 µg/mL
NCCC(O)C(=O)N[C@@H]1C[C@H](N)C(O[C@H]2O[C@H](CN)[C@@H](O)[C@H](O)[C@H]2O)[C@H](O)[C@H]1O[C@H]1O[C@H](CO)[C@@H](O)[C@H](N)[C@H]1O,Clinical strains,16 µg/mL
CCn1cc(C(=O)O)c(=O)c2cc(F)c(N3CCNCC3)nc21,22 strains,128 µg/mL
CC(C)(C)n1cc(C(=O)O)c(=O)c2cc(F)c(N3CCNCC3)nc21,14 strains,4 µg/mL
CO[C@H]1/C=C/O[C@@]2(C)Oc3c(C)c(O)c4c(O)c(c(/C=N/N5CCN(C)CC5)c(O)c4c3C2=O)NC(=O)/C(C)=C\C=C\[C@H](C)[C@H](O)[C@@H](C)[C@@H](O)[C@@H](C)[C@H](OC(C)=O)[C@@H]1C,Reference strains,>16 µg/mL
Cc1cc(-c2cc3c(cc2F)c(=O)c(C(=O)O)cn3C2CC2)cc(C)n1,55 strains,3.85 µg/mL

2 of the rows above, restated:

smiles | strain | value
NCCC(O)C(=O)N[C@@H]1C[C@H](N)C(O[C@H]2O[C@H](CN)[C@@H](O)[C@H](O)[C@H]2O)[C@H](O)[C@H]1O[C@H]1O[C@H](CO)[C@@H](O)[C@H](N)[C@H]1O | Clinical strains | 16 µg/mL
CC(C)(C)n1cc(C(=O)O)c(=O)c2cc(F)c(N3CCNCC3)nc21 | 14 strains | 4 µg/mL

MIC50, MIC90 and the like: level of inhibition, or share of isolates inhibited.